A mixed list of measured activities; the numbers were collected in NIAID ChemDB.

Shared fields: tests on isolated targets; organism: HIV-1; protein: Reverse transcriptase; read-out: IC50

Conditions beyond the fields shown may differ between rows. a–b is a range or a potency band. An empty or dashed field is not shown. ICn is the concentration giving n% inhibition.

CC(=O)Oc1c(O)ccc(O)c1C[C@]1(C)[C@@H](C)CC[C@]2(C)C(C)=CCC[C@@H]12 ; value: >50 µg/mL
CC(C)=CCOc1cc(NC(=S)c2ccoc2C)ccc1Cl ; mutations: RT-K103N ; value: 22.3 µM
O=[N+]([O-])c1ccccc1S(=O)(=O)c1ccccc1 ; value: 9.5 µM
O=C(O)/C=C/c1ccc(N=Nc2c(S(=O)(=O)O)cc3cc(NC(=O)Nc4ccc5c(O)c(N=Nc6ccc(/C=C/C(=O)O)cc6)c(S(=O)(=O)O)cc5c4)ccc3c2O)cc1 ; value: 0.025–0.1 µM
O=C(CCCCC(=O)Nc1ccc(Br)cc1C(=O)O)Nc1ccccc1 ; value: >100 µg/mL
NC(=O)[C@H](Nc1ccccc1[N+](=O)[O-])c1c(Cl)cccc1Cl ; value: 67 µM
O=C(O)c1cn([C@@H]2O[C@H](CO)[C@@H](O)[C@H]2O)c2cc(Cl)ccc2c1=O ; value: >100 µM
CC(=O)c1ccc(C)cc1N[C@H](C(N)=O)c1c(Cl)cccc1Cl ; value: 0.2 µM
CSCO[C@]1(C)COC(C)(CC(=O)OC[C@@H]2C=C[C@H](n3cnc4c(N)ncnc43)O2)C1 ; value: >100 µM
COc1cc(-c2cc(=O)c3c(O)c(OC)c(O)cc3o2)cc(O)c1OC ; value: >25.5 µg/mL
Nc1ncnc2c1ncn2[C@@H]1O[C@H](COP(=O)(O)O[C@@H]2[C@H](O)[C@@H](COP(=O)(O)O[C@@H]3[C@H](O)[C@@H](COP(=O)(O)O)O[C@H]3n3cnc4c(N)ncnc43)O[C@H]2n2cnc3c(N)ncnc32)[C@@H](O)[C@H]1O ; strain: IIIB ; value: >10 µM
CC(C)=CCOc1cc(NC(=S)c2ccoc2C)ccc1Cl ; strain: IIIB ; value: 0.023 µM
CCc1c(-c2coc(CC/C(C)=C/c3ccccc3)n2)oc(OC)c(C)c1=O ; value: 142 µg/mL
Nc1ncnc2c1ncn2C1OC(CO)CC1OP(=O)(O)OCC1CC(OP(=O)(O)OCC2OC(n3cnc4c(N)ncnc43)C(O)C2O)C(n2cnc3c(N)ncnc32)O1 ; strain: IIIB ; value: >10 µM
CCOCn1c(Sc2ccccc2)c(CC)c(=O)[nH]c1=O ; value: 0.27 µM
CCCCC#CC1(C(F)(F)F)OC(=O)Nc2cccc(F)c21 ; value: 0.156 µM
O=C1Nc2ccc(F)c(F)c2[C@@](C#CC2CC2)(C(F)(F)F)N1 ; value: 0.018 µM
O=C(O)C(=O)CC(=O)C1(Cc2ccc(Cl)cc2)CCCN(Cc2ccccc2)C1 ; value: >300 µM
O=c1c(O[C@@H]2O[C@H](CO)[C@@H](O)[C@H](O)[C@H]2O)c(-c2ccc(O)cc2)oc2cc(O)cc(O)c12 ; value: >1000 µM
CC(=O)Oc1c(OCC(=O)c2ccccc2)ccc2c1C(=O)c1ccccc1C2=O ; value: 60 µM
NCCC1C=Nc2ccccc21 ; value: 94.9 µM
CC1(C)Oc2ccc3ccc(=O)oc3c2[C@@H](OC(=O)C23CCC(C)(C(=O)O2)C3(C)C)[C@H]1OC(=O)C12CCC(C)(C(=O)O1)C2(C)C ; strain: IIIB ; value: >100 µg/mL
C#CCOc1ccc(OCC#C)c2c1C(=O)c1ccccc1C2=O ; value: 19 µM
Cc1cn([C@H]2C[C@H](F)[C@@H](CO)O2)c(=O)[nH]c1=O ; value: 0.05 µM
CCCCCCCCCCCCCCCCOCC(COC(=O)CCC(=O)OC1CC(COP(=O)(O)OC2CC(COP(=O)(O)OC3CC(CO)OC3n3cnc4c(N)ncnc43)OC2n2cnc3c(N)ncnc32)OC1n1cnc2c(N)ncnc21)OCCCCCCCCCCCCCCCC ; value: <300 µM
O=C(OCC1OC(OC2Cc3c(O)cc(O)cc3OC2c2cc(O)c(O)c(O)c2)C(O)C(O)C1O)c1cc(O)c(O)c(O)c1 ; value: 10.9 µM
CCC(=O)c1ccc(F)c([C@H]2C[C@H]2NC(=O)Nc2ccc(Br)cn2)c1O ; strain: IIIB ; mutations: RT-K103N ; value: 0.014 µM
Nc1ncnc2c1ncn2[C@@H]1O[C@H](COP(=O)([O-])O)[C@@H](O)[C@H]1OP(=O)([O-])OC[C@@H]1C[C@@H](OP(=O)([O-])OC[C@@H]2C[C@@H](O)[C@H](n3cnc4c(N)ncnc43)O2)[C@H](n2cnc3c(N)ncnc32)O1 ; strain: IIIB ; value: >10 µM
CC1(C)Oc2ccc3ccc(=O)oc3c2[C@H](OC(=O)C23CCC(C)(C(=O)O2)C3(C)C)[C@@H]1OC(=O)C12CCC(C)(C(=O)O1)C2(C)C ; strain: IIIB ; value: >100 µg/mL
Cc1cn([C@H]2CC[C@@H](COP(=O)(O)OP(=O)(O)OP(=O)(O)O)O2)c(=O)[nH]c1=O ; value: 0.0081 µM
CC(C)=CCOc1cc(NC(=S)c2ccsc2C)ccc1Cl ; mutations: RT-M184V ; value: 0.8 µM
Nc1ncnc2c1ncn2C1OC(COP(=O)(O)OC2C(O)C(COP(=O)(O)OC3C(O)C(CO)OC3n3cnc4c(N)ncnc43)OC2n2cnc3c(N)ncnc32)CC1O ; strain: IIIB ; value: >10 µM
O=C(O)CP(=O)(O)O ; strain: LAV ; value: >500 µM
NC(=O)c1ncn(C2CCCC2)c1N ; value: >100 µM
O=C(Nc1ccc(Br)cc1C(=O)O)c1cncc(C(=O)Nc2ccc(Br)cc2C(=O)O)c1 ; value: >100 µg/mL
Nc1ncnc2c1ncn2C1OC(COP(=O)(O)OC2C(O)C(COP(=O)(O)OC3CC(CO)OC3n3cnc4c(N)ncnc43)OC2n2cnc3c(N)ncnc32)CC1O ; strain: IIIB ; value: >10 µM
C[Si](C)(CCCSc1ncccn1)O[Si](C)(C)CCCSc1ncccn1 ; value: >2000 µM
CC(=O)Oc1c(OCC(=O)c2ccc(Br)cc2)ccc2c1C(=O)c1ccccc1C2=O ; value: 5 µM
CCCOCCCNC(=S)Nc1cc(OC)c(Cl)cc1OC ; value: 1.1 µM
Nc1ncnc2c1ncn2[C@H]1CO[C@@H](COP(=O)(O)OP(=O)(O)OP(=O)(O)O)C1 ; value: 35 µM
COc1c(O)cc2oc(-c3ccc(O)cc3)cc(=O)c2c1O ; value: <57.9 µg/mL
C[Si](C)(CCCSc1nc2cc(Cl)ccc2s1)O[Si](C)(C)CCCSc1nc2cc(Cl)ccc2s1 ; value: 1000 µM
CC(=O)C(C)Oc1ccc2c(c1OC(C)C(C)=O)C(=O)c1ccccc1C2=O ; value: >100 µM
C[Si](C)(CCCn1ccnc1)O[Si](C)(C)CCCn1ccnc1 ; value: >2000 µM
Nc1ncnc2c1ncn2[C@@H]1O[C@H](COP(=O)([O-])O)[C@@H](O)[C@H]1OP(=O)([O-])OC[C@H]1O[C@@H](n2cnc3c(N)ncnc32)[C@H](OP(=O)([O-])OC[C@@H]2C[C@@H](O)[C@H](n3cnc4c(N)ncnc43)O2)[C@@H]1O ; strain: IIIB ; value: >10 µM
Cc1cn([C@H]2C[C@H](F)[C@@H](CO)O2)c(=O)[nH]c1=S ; value: 0.2 µM
N/C(=N\O)c1ncn(C2CCCC2)c1N ; value: 0.5 µM
O=C(O)c1cn([C@@H]2O[C@H](CO)[C@@H](O)[C@H]2O)c2cc(Br)ccc2c1=O ; value: >100 µM
COc1cc2oc(-c3cc(O)c(OC)c(O)c3)c(OC)c(=O)c2c(O)c1OC ; value: >16.2 µg/mL
CCCCC#CC1(C(F)(F)F)OC(=O)Nc2ccc(N)cc21 ; value: 1.506 µM
CCC(=O)COc1ccc(O)c2c1C(=O)c1ccccc1C2=O ; value: >100 µM
CCCCCCCCCCCCCCCCOCC(COC(=O)CCC(=O)OCC1CC(OP(=O)(O)OCC2CC(OP(=O)(O)OCC3CC(O)C(n4cnc5c(N)ncnc54)O3)C(n3cnc4c(N)ncnc43)O2)C(n2cnc3c(N)ncnc32)O1)OCCCCCCCCCCCCCCCC ; value: <300 µM
O=c1[nH]c(=O)n([C@H]2C[C@H](F)[C@@H](CO)O2)cc1/C=C/Br ; value: 0.015 µM
CCCC#CC1(C(F)(F)F)OC(=O)Nc2cccc(F)c21 ; value: 0.127 µM
CCCCCCCCCCCCCCCC(=O)OCC(COC(=O)CCC(=O)OC1CC(COP(=O)(O)OC2CC(COP(=O)(O)OC3CC(CO)OC3n3cnc4c(N)ncnc43)OC2n2cnc3c(N)ncnc32)OC1n1cnc2c(N)ncnc21)OC(=O)CCCCCCCCCCCCCCC ; value: <300 µM
O=C(Cc1cccc(CC(=O)Nc2ccc(Br)cc2C(=O)O)c1)Nc1ccc(Br)cc1C(=O)O ; value: >100 µg/mL
C#CCOc1ccc(OC(C)=O)c2c1C(=O)c1ccccc1C2=O ; value: 84 µM
CCc1cn([C@H]2C[C@H](F)[C@@H](CO)O2)c(=O)[nH]c1=O ; value: 7.5 µM
CCCCCCCCCCCCCCCC(=O)OCC(COC(=O)CCC(=O)OCC1CC(OP(=O)(O)OCC2CC(OP(=O)(O)OCC3CC(O)C(n4cnc5c(N)ncnc54)O3)C(n3cnc4c(N)ncnc43)O2)C(n2cnc3c(N)ncnc32)O1)OC(=O)CCCCCCCCCCCCCCC ; value: <300 µM
O=C(Oc1ccc2c(c1OC(=O)c1ccccc1)C(=O)c1ccccc1C2=O)c1ccccc1 ; mutations: Y181C ; value: >100 µM
CC(C)=CCOc1cc(NC(=S)c2ccoc2C)ccc1Cl ; mutations: RT-E138K(P66) ; value: 0.01 µM
CC1=CCC[C@H]2[C@](C)(Cc3c(O)ccc(O)c3O)[C@@H](C)CC[C@]12C ; value: 7 µg/mL
CCn1c(C)c(C(=O)OC)c(C(=O)OC)c1Cc1ccccc1 ; strain: BH10 ; value: 0.64 µM

6 of the rows above, restated:

compound | strain | mutations | value
Cc1cn([C@H]2C[C@H](F)[C@@H](CO)O2)c(=O)[nH]c1=S | - | - | 0.2 µM
CCCCCCCCCCCCCCCC(=O)OCC(COC(=O)CCC(=O)OCC1CC(OP(=O)(O)OCC2CC(OP(=O)(O)OCC3CC(O)C(n4cnc5c(N)ncnc54)O3)C(n3cnc4c(N)ncnc43)O2)C(n2cnc3c(N)ncnc32)O1)OC(=O)CCCCCCCCCCCCCCC | - | - | <300 µM
C#CCOc1ccc(OC(C)=O)c2c1C(=O)c1ccccc1C2=O | - | - | 84 µM
CC(=O)Oc1c(O)ccc(O)c1C[C@]1(C)[C@@H](C)CC[C@]2(C)C(C)=CCC[C@@H]12 | - | - | >50 µg/mL
C[Si](C)(CCCSc1nc2cc(Cl)ccc2s1)O[Si](C)(C)CCCSc1nc2cc(Cl)ccc2s1 | - | - | 1000 µM
CCc1c(-c2coc(CC/C(C)=C/c3ccccc3)n2)oc(OC)c(C)c1=O | - | - | 142 µg/mL